Pooled drug test results. Numbers come from NIAID ChemDB, via PubChem.

Shared fields: tests in culture; organism: Rhinovirus; read-out: inhibition

For "inactive" no cut-off is given. Conditions beyond the fields shown may differ between rows. Inhibition is in % at the dose shown (toxicity tests: loss of growth or viability). Blank or dashed fields: not listed here. a–b is a range or a potency band.

{"structure": "CN(C)c1nc(C(F)(F)F)nc2c1ncn2Cc1ccc(Cl)c(N)c1", "strain": "Serotype 19", "cells": "M-HELA", "read by": "plaque count", "tested at": "8 µM", "result": "40%"}
{"structure": "COc1cc(/C=C/C(=O)Oc2c(-c3ccc(Cl)c(Cl)c3)oc3ccccc3c2=O)ccc1OC(C)=O", "strain": "Serotype 14", "cells": "HeLa", "read by": "plaque count", "tested at": "0.39 µM", "result": "3%"}
{"structure": "Cc1ccc(Cn2cnc3c(N(C)C)nc(C(F)(F)F)nc32)cc1", "strain": "TYPE 4", "cells": "M-HELA", "read by": "plaque count", "tested at": "2.5 µM", "result": "41%"}
{"structure": "CCOC(=O)c1csc(N2CCN(Cc3cc(C)ccc3C)CC2)n1", "strain": "100 serotypes", "tested at": "0.2 µg/mL", "result": "18%"}
{"structure": "Fc1cccc(Cn2cnc3c(Nc4cccc(F)c4)nc(C(F)(F)F)nc32)c1", "strain": "Serotype 6", "cells": "M-HELA", "read by": "plaque count", "tested at": "2.5 µM", "result": "21%"}
{"structure": "O=S(=O)([O-])c1ccc2c(O)cc(S(=O)(=O)[O-])cc2c1", "cells": "Human amnion AV3 cells", "read by": "cytopathic effect", "tested at": "5 µg/mL", "result": "10%"}
{"structure": "CN(C)c1nc(C(F)(F)F)nc2c1ncn2Cc1ccc(Cl)cc1Cl", "strain": "Serotype 13", "cells": "M-HELA", "read by": "plaque count", "tested at": "8 µM", "result": "20%"}
{"structure": "N#Cc1cc([N+](=O)[O-])ccc1Oc1ccc(Cl)c(Cl)c1", "strain": "HANK", "cells": "VERO", "read by": "plaque count", "tested at": "0.125 µg/mL", "result": "57.9%"}
{"structure": "O=C(Oc1c(-c2ccc(Cl)c(Cl)c2)oc2ccccc2c1=O)c1cc(OCc2ccccc2)c(OCc2ccccc2)c(OCc2ccccc2)c1", "strain": "Serotype 1B", "cells": "HeLa", "read by": "plaque count", "tested at": "6.25 µM", "result": "23%"}
{"structure": "O=C(Nc1cc(S(=O)(=O)O)cc2cc(S(=O)(=O)O)cc(O)c12)c1ccccc1", "cells": "Human embryonic lung cells", "read by": "cytopathic effect", "tested at": "50 µg/mL", "result": "26%"}
{"structure": "CN(c1cccc(F)c1)c1nc(C(F)(F)F)nc2c1ncn2Cc1cccc(F)c1", "strain": "Serotype 5", "cells": "M-HELA", "read by": "plaque count", "tested at": "10 µM", "result": "18%"}
{"structure": "O=C(Oc1c(-c2ccc(Cl)c(Cl)c2)oc2ccccc2c1=O)c1cc(O)c(O)c(O)c1", "strain": "Serotype 14", "cells": "HeLa", "read by": "plaque count", "tested at": "25 µM", "result": "38%"}
{"structure": "CC(C)Oc1ccc(Cn2cnc3c(N(C)C)nc(C(F)(F)F)nc32)cc1", "strain": "Serotype 15", "cells": "M-HELA", "read by": "plaque count", "tested at": "8 µM", "result": "40%"}
{"structure": "COc1cc(C(=O)Oc2c(-c3ccc(Cl)c(Cl)c3)oc3ccccc3c2=O)ccc1OC(C)=O", "strain": "Serotype 1B", "cells": "HeLa", "read by": "plaque count", "tested at": "1.56 µM", "result": "28%"}
{"structure": "CN(C)c1ccc(Cn2cnc3c(N(C)C)nc(C(F)(F)F)nc32)cc1", "strain": "Serotype 19", "cells": "M-HELA", "read by": "plaque count", "tested at": "8 µM", "result": "23%"}
{"structure": "O=C(Nc1cc(S(=O)(=O)[O-])cc2cc(S(=O)(=O)[O-])ccc12)c1ccccc1", "cells": "Human embryonic lung cells", "read by": "cytopathic effect", "tested at": "50 µg/mL", "result": "10%"}
{"structure": "Cc1cccc(C2=CCN(c3ccc(Cl)nn3)CC2)c1", "strain": "17 serotypes", "tested at": "0.021 µg/mL", "result": "18%"}
{"structure": "O=C(O)Cc1csc(/N=C2\\SC[C@@H]3Cc4ccccc4CN23)n1", "strain": "Serotype 1A", "cells": "MRC-5", "read by": "cytopathic effect", "tested at": "7 µg/mL", "result": "80–100%"}
{"structure": "CN(C)c1nc(C(F)(F)F)nc2c1ncn2Cc1ccccc1", "strain": "Serotype 30", "cells": "M-HELA", "read by": "plaque count", "tested at": "8 µM", "result": "19%"}
{"structure": "CC1(C)COC(c2ccc(OCCN3CCN(c4ccc(Cl)nn4)CC3)cc2)=N1", "strain": "100 serotypes", "tested at": "32 µg/mL", "result": "71%"}
{"structure": "Cc1ccccc1Cn1cnc2c(N(C)C)nc(C(F)(F)F)nc21", "strain": "Serotype 31", "cells": "M-HELA", "read by": "plaque count", "tested at": "8 µM", "result": "47%"}
{"structure": "O=C(Oc1c(-c2ccc(Cl)cc2)oc2ccccc2c1=O)c1cc(O)c(O)c(O)c1", "strain": "Serotype 1B", "cells": "HeLa", "read by": "plaque count", "tested at": "5.31 µM", "result": "inactive"}
{"structure": "CN(C)c1nc(C(F)(F)F)nc2c1ncn2Cc1ccc(S(C)(=O)=O)cc1", "strain": "Serotype 18", "cells": "M-HELA", "read by": "plaque count", "tested at": "8 µM", "result": "29%"}
{"structure": "CCOc1cc(O)c(C(=O)/C=C/c2ccc(OC)cc2)c(OC)c1", "strain": "17 serotypes", "tested at": "0.775 µg/mL", "result": "71%"}
{"structure": "O=S(=O)(O)c1cccc2c(O)cccc12", "cells": "Human amnion AV3 cells", "read by": "cytopathic effect", "tested at": "50 µg/mL", "result": "0%"}
{"structure": "CN(C)c1nc(C(F)(F)F)nc2c1ncn2Cc1ccc([N+](=O)[O-])cc1", "strain": "Serotype 13", "cells": "M-HELA", "read by": "plaque count", "tested at": "8 µM", "result": "13%"}

A second listing of 3 rows from above:

structure	strain	cells	read by	tested at	result
CC(C)Oc1ccc(Cn2cnc3c(N(C)C)nc(C(F)(F)F)nc32)cc1	Serotype 15	M-HELA	plaque count	8 µM	40%
Cc1cccc(C2=CCN(c3ccc(Cl)nn3)CC2)c1	17 serotypes			0.021 µg/mL	18%
CN(C)c1nc(C(F)(F)F)nc2c1ncn2Cc1ccc(Cl)cc1Cl	Serotype 13	M-HELA	plaque count	8 µM	20%